Several values for one entry are separate records, joined by “and”; a condition that tells them apart may be missing. Equal values may be shown once.

As a reminder, the Kd is the concentration at which binding is half-saturated. Low readings indicate tighter binding, high ones weaker binding.

The target in series [1] is wild-type gp120YU2 with V5 and hexahis tags (HIV-1 strain YU2). The series is described as follows: SPR.
For series [2] the following is noted: ref [4]; cited from earlier work.

Consider “Hexahis-tagged 4-domain soluble CD4 (receptor)”, for which, in series [1], the Kd is 0.079 µM and 0.022 µM.

Consider maraviroc, for which the “upper respiratory tract infections” value in series [2] is recorded as “increased incidence of upper respiratory tract infections”.

These data come from paper PMC3731144 (Proteins, 2012).
